A short description of data set [1]: Therapeutic index against the best MIC measured. Conditions: for Minimum TI: lowest TI obtained in either TI_CC50 or TI_HC10; for therapeutic index: Table S7.
For data set [2], the system named is human red blood cells. The class given is cell-based. Particulars: Therapeutic Index with respect to haemolysis against the best MIC measured. The protocol:
Human whole blood (Australian Red Cross) was washed three times with 3 vol of 0.9% NaCl and resuspended in a concentration of 0.5 × 10^8 cells/mL, determined by a manual cell count in a Neubauer hemocytometer. […] After incubation, the plates were centrifuged at 1000g for 10 min to pellet cells and debris; 25 μL of the supernatant was then transferred to reading plates (384-well, polystyrene plated (PS), Corning CLS3680), with hemolysis determined by measuring the supernatant absorbance at […] (OD405) using cells without inhibitors as negative control and cells with 1% Triton X-100 (Sigma T8787) as positive control. […] Melittin (Sigma M2272) was used as internal control on each plate.

Here are results for 13 compounds from PMC9597602, “Metal Complexes as Antifungals? From a Crowd-Sourced Compound Library to the First In Vivo Experiments” (JACS Au, 2022).

Molecules are shown by their SMILES. For some of these results: The source's definition of the ratio is not given here.

For the compound `CS(=O)(=O)[O][Pd][c]1ccccc1-c1ccccc1N.CS(=O)(=O)[O][Pd][c]1ccccc1-c1ccccc1N` [Pd2], the “Minimum TI” value in data set [1] turned out to be 10. In addition, the TI_HC10 in data set [2] is listed as 10-130.

For `C1=CCCC=CCC1.[Cl][Pt][Cl]` [Pt1], the “Minimum TI” value in data set [1] is on record as 64. This compound gave a TI_HC10 in data set [2] of 64.

Take `O=C([O][Ag])c1ccc(N2N=C(/C=C/C=C/c3ccccc3)CC2/C=C/c2ccccc2)cc1.O=C([O][Ag])c1ccc(N2N=C(/C=C/C=C/c3ccccc3)CC2/C=C/c2ccccc2)cc1` (racemic) [Ag2, 1-(4-Carboxyphenyl)-3-{(1E,3E)-4-phenylbuta-1,3-dien-1-yl}-5-{(E)-styryl}-2-pyrazoline silver(I) complex]: the “Minimum TI” value in data set [1] came to 933. In addition, the TI_HC10 in data set [2] is given as 33,333.

As for `C1=CCCC=CCC1.[I][Pt][I]` [Pt2], the “Minimum TI” value in data set [1] came to 128. The compound further returned a TI_HC10 in data set [2] of 128.

With `Cc1ccc2ccc3ccc(C)nc3c2n1.Cc1ccc2ccc3ccc(C)nc3c2n1.O=C([O][Eu]([O]C(=O)c1ccccc1F)[O]C(=O)c1ccccc1F)c1ccccc1F` [Eu1], in data set [1], the therapeutic index was 33,333 and the “Minimum TI” value was 33,333. Moreover, the TI_HC10 in data set [2] is 33,333.

For the compound `C1=CCCC=CCC1.[Cl][Pd][Cl]` [Pd1], in data set [1], the therapeutic index was determined as 13 and the “Minimum TI” value was determined as 13. The compound further had a TI_HC10 in data set [2] of 13.

In the case of `CC(=NN=C(N)[S-])C(C)=NN=C(N)[S-].O=[N+]([O-])[O-].[Co+3].c1c[nH]cn1.c1c[nH]cn1` [Co1], the “Minimum TI” value in data set [1] is 256. For the same compound, in data set [2], the TI_HC10 came out at 256.

`Cc1c(C)c(-c2ccc(-c3ccccc3)cc2)[c-](C)c1C.Cc1ccccc1NC1=[NH+][Ir]([Cl])[NH]C(NS(=O)(=O)c2ccc([N+](=O)[O-])cc2)=N1` [Ir2]: the “Minimum TI” value in data set [1] amounted to 2600. Besides, the TI_HC10 in data set [2] stood at 3154.

Regarding `Cc1c(C)c(C)[c-](C)c1C.Cc1c(C)c(C)[c-](C)c1C.[Cl-].[Cl-].[Cl-].[Cl-].[Rh+3].[Rh+3]` [Rh1], the “Minimum TI” value in data set [1] was 1. Further, in data set [2], the TI_HC10 is given as 1-9.

`c1cnc([S][Au][PH](c2ccco2)(c2ccco2)c2ccco2)nc1` [Au1]: in data set [1], the “Minimum TI” value came to 5. The TI_HC10 in data set [2] is 3746-8333.

On to `COc1ccc(/C=C/C2=NN(c3ccc(C(=O)[O][Ag])cc3)C(c3ccc(OC)c(OC)c3)C2)cc1OC.COc1ccc(/C=C/C2=NN(c3ccc(C(=O)[O][Ag])cc3)C(c3ccc(OC)c(OC)c3)C2)cc1OC` (racemic) [Ag1, (Ε)-1-(4-Carboxyphenyl)-5-(3,4-dimethoxyphenyl)-3-(3,4-dimethoxystyryl)-2-pyrazoline silver(I) complex], for which the “Minimum TI” value in data set [1] was found to be 2117. For the same compound, the TI_HC10 in data set [2] is listed as 2117-25,600.

Take `CC(C)C([O][Pt][Cl])C1=CCCC=CCC1` (stereo not shown) [Pt4]: the “Minimum TI” value in data set [1] amounted to 128. Moreover, the TI_HC10 in data set [2] stood at 128.

`Cc1c(C)c(-c2ccc(-c3ccccc3)cc2)[c-](C)c1C.Cc1ccccc1NC1=[NH+][Ir]([Cl])[NH]C(NS(=O)(=O)c2cccc3c(N(C)C)cccc23)=N1` [Ir3]: the “Minimum TI” value in data set [1] turned out to be 3383. The same compound came in with a TI_HC10 in data set [2] of 3383.
